Laboratory results from BindingDB's records for 39691526.

The chains behind the UniProt entries cited, without tags or fusion partners. Residues count along the entry.
UniProt P06276, 29-602 limits assumed: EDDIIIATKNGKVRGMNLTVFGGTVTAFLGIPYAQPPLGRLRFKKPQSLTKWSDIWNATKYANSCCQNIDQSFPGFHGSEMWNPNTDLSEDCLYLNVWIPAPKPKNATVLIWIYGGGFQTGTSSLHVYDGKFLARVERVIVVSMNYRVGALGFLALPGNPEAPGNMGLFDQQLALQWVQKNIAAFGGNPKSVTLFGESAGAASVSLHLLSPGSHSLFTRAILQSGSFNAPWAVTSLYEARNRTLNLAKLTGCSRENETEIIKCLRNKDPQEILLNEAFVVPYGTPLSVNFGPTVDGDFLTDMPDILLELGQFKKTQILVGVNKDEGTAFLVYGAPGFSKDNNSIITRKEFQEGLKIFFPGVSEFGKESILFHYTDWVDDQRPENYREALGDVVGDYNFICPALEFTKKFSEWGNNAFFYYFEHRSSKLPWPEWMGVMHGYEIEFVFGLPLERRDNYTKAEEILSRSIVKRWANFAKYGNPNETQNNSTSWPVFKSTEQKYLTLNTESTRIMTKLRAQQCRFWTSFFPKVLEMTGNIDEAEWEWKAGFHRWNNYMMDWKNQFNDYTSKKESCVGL
UniProt P22303, 32-614 limits assumed: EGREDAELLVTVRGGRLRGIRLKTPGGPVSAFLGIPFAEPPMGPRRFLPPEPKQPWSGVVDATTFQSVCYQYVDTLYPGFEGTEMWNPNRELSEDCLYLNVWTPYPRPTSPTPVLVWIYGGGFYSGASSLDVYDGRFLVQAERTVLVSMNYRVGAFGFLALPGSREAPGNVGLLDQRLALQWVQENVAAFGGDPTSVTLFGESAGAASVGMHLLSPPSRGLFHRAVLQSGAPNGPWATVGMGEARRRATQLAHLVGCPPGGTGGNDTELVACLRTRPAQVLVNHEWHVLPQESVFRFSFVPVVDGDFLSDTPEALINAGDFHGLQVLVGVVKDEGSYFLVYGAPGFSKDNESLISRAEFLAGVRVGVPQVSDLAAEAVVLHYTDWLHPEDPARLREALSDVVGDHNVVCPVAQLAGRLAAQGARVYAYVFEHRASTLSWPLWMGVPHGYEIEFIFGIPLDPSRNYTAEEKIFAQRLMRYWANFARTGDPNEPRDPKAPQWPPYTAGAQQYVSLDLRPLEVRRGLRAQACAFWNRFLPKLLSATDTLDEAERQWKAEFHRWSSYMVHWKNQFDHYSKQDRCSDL

Tests used:
Cholinesterase = Cholinesterase (Homo sapiens, UniProt P06276); test: Inhibition of human recombinant BChE using butyrylcholine iodide as substrate by Ellman's method
Acetylcholinesterase = Acetylcholinesterase (Homo sapiens, UniProt P22303); test: Inhibition of human recombinant AChE using acetylthiocholine iodide as substrate by Ellman's method

Structure (SMILES) | IC50 (Cholinesterase) [µM] | IC50 (Acetylcholinesterase) [µM]
C[n+]1cc(Br)ccc1/C=N/O | > 800 | –
C[n+]1cc(F)ccc1/C=N/O | > 800 | 277
C[n+]1cccc(Cl)c1/C=N/O | > 800 | 450
C[n+]1cc(Cl)ccc1/C=N/O | > 800 | 133
C[n+]1cccc(Br)c1/C=N/O | > 800 | 385
C[n+]1cccc(F)c1/C=N/O | > 600 | 522
